Assay results: patent US7482149B2 (priority 2003, dated 2009)

Tested on: SARS-CoV
Type: cell-based

Molecule	Inhibition of Cytopathic Effect	inhibition of CPE
Interferon α2a: Interferon α2a (Roferon), Roche, clinically approved interferon	No	slight, incomplete inhibition
Interferon β1a: Interferon β1a (Rebif), Serono (protein, UniProt P01574 22-187, looked up) Interferon beta: MSYNLLGFLQRSSNFQCQKLLWQLNGRLEYCLKDRMNFDIPEEIKQLQQFQKEDAALTIYEMLQNIFAIFRQDSSSTGWNETIVENLLANVYHQINHLKTVLEEKLEKEDFTRGKLMSSLHLKRYYGRILHYLKAKEYSHCAWTIVRVEILRNFYFINRLTGYLRN	No	slight inhibition
